This note sets out measurements from PMC4684341.

For at least one entry, the source does not settle the construct or the ends of the probe. For some assays here: Where a protein sequence is shown, tags need not be part of it.

The target of series [1] is NS3h_1b (con1) (Hepatitis C virus genotype 1b (con1)) (UniProt Q9WMX2). The experiment in a line: fluorescence polarization. To be noted: 1.25 mM MgCl2, no ATP listed; 25 mM MOPS pH 6.5, 1.25 mM MgCl2, 5 nM Cy5-dT15 (Fig 3 legend: 100 nM Cy5), 0.05 mM DTT, 0.005 mg/mL BSA, 0.001% Tween20; recombinant protein; residues 1207-1657; protein details: C-terminal His6 (not removed); single-stranded DNA.

The target in a further series is T1, NS3h_3a (wt) (UniProt Q81258).
T1 sequence (looked up, limits assumed): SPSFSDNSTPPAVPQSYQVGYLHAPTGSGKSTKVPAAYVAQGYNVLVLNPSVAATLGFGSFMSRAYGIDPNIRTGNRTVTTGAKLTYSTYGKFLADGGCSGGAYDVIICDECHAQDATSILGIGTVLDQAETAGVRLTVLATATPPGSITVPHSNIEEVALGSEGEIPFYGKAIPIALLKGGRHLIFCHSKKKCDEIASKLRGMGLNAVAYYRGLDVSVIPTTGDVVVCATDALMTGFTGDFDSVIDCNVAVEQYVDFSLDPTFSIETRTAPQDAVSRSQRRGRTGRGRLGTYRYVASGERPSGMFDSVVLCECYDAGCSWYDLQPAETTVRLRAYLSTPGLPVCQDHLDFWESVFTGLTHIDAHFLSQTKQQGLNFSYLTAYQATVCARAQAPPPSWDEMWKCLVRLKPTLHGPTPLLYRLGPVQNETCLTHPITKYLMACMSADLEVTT
The experiment in a line: fluorescence polarization. Conditions: 1.25 mM MgCl2, no ATP listed; 25 mM MOPS pH 6.5, 1.25 mM MgCl2, 5 nM Cy5-dT15 (Fig 3 legend: 100 nM Cy5), 0.05 mM DTT, 0.005 mg/mL BSA, 0.001% Tween20; recombinant protein; protein details: C-terminal His6 (not removed); single-stranded DNA. (In general: Polarisation of emitted light reports the rotation of a fluorescent probe.)

Regarding TTTTTTTTTTTTTTT [Cy5-dT15], the figures for the Kd (in series [1]; with NS3h_3a (wt)) were 5.2 nM and 2.5 nM, respectively.

As usually defined, the Kd is the equilibrium constant for the complex coming apart.
